For one molecule, Kd results are on record in publication PMC5680308, “Binding of mycotoxins to proteins involved in neuronal plasticity: a combined in silico/wet investigation” (Scientific Reports, 2017).

By UniProt entry, the sequences of proteins in these tests, tags left out. Residues count along the entry.
UniProt Q8N0W4, 42-676 limits assumed: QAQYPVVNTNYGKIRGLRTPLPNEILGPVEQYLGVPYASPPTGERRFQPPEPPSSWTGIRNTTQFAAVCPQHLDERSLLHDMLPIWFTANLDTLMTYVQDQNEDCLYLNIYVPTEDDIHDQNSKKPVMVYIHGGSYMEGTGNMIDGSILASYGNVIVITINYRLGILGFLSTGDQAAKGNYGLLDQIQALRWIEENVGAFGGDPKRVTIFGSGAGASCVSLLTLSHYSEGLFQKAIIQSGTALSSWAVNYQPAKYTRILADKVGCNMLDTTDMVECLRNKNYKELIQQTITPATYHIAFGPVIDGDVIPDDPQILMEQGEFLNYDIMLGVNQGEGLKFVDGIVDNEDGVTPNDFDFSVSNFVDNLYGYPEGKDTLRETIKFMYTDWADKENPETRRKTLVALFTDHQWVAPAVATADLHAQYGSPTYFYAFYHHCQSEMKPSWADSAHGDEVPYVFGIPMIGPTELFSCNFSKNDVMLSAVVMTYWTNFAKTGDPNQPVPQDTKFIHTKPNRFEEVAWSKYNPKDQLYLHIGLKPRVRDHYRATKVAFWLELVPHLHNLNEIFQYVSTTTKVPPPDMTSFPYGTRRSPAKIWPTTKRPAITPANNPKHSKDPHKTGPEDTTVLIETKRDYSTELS

For this assay, the target named is Human recombinant neuroligin 4-X linked (NLGN4X) (Homo sapiens, UniProt Q8N0W4). Briefly: Fluorescence steady-state binding experiments (intrinsic Trp fluorescence). As to conditions: read-out: dissociation constant (kD); Trp fluorescence emission variation, PBS buffer pH 7.4, 25 °C, non-linear regression.

On to `CC1=C[C@H]2O[C@@H]3[C@H](O)C[C@](C)([C@@]2(CO)[C@H](O)C1=O)[C@]31CO1` [Deoxynivalenol, deoxynivalenol], for which the Kd (commonly a measure of binding affinity in units of concentration) was found to be 665 nM.
